A mixed list of measured activities; the numbers were collected in NIAID ChemDB.

Common to all: tests in culture; agent: Mycobacterium tuberculosis

Inhibition is in % at the dose shown (toxicity tests: loss of growth or viability). Two numbers with a dash give a range or band. MIC bound: limit read from a one-dose screen. A number after MIC or MFC names an inhibition level or a share of isolates. Lines come from different laboratories, so protocols vary. Blank or dashed fields: not listed here.

SMILES	endpoint	strain	changes	cells	read by	dose	result
c1cnn([B-]2(n3cccn3)n3ccc[n+]3[B-](n3cccn3)(n3cccn3)n3ccc[n+]32)c1	MIC	H37Rv			BACTEC		≥128 µg/mL
Clc1ccc(-c2c(C(c3ccccc3)n3ccnc3)cnn2-c2ccc(Cl)cc2)cc1	MIC90	ATCC 35837 (ethambutol-resistant)					≥100 µM
CC1=C(C(=O)Nc2ccccc2F)C(c2ccccc2)C(C(=O)Nc2ccccc2[N+](=O)[O-])=C(C)N1	MIC	H37Rv					>6.25 µg/mL
CO[C@H]1/C=C/O[C@@]2(C)Oc3c(C)c(O)c4c(=O)c(c5oc6cc(N7CCN(CC(C)C)CC7)cc(=O)c6nc5c4c3=C2O)NC(=O)/C(C)=C\C=C\[C@H](C)[C@H](O)[C@@H](C)[C@@H](O)[C@@H](C)[C@H](OC(C)=O)[C@@H]1C	MIC	32 (isoniazid-resistant)					0.0039 µg/mL
O=C(c1cn(-c2ccc(Cl)cc2)nn1)c1ccc(Cl)cc1Cl	inhibition	H37Rv				12.5 µg/mL	0%
CN[C@@H]1[C@H](O[C@H]2[C@H](O[C@H]3[C@H](O)[C@@H](O)[C@H](N=C(N)N)[C@@H](O)[C@@H]3N=C(N)N)O[C@@H](C)[C@]2(O)C=O)O[C@@H](CO)[C@H](O)[C@H]1O	MIC	MTB12 (PZA-R)					0.3 µg/mL
O=C1CCCCCCCCCCCCCCO1	inhibition	H37Rv			BACTEC	12.5 µg/mL	24%
CC1COc2c(N3CCN(C)CC3)c(F)cc3c(=O)c(C(=O)O)cn1c23	MIC	90-0201 (DRUG-SUS)					0.5 µg/mL
CN(C)CC=C(c1ccccc1)c1ccc(-c2ccc(Br)cc2)cc1	MIC	ALI 536					≤5 µg/mL
C=CCOc1cc2oc3cc(O)c(CCC(C)C)c(O)c3c(=O)c2c(CCC(C)C)c1OC	MIC	M5			resazurin		3.12 µg/mL
CC1CN(Cc2cc(C(C)(C)c3cc(Cl)c(O)c(CN4CC(C)OC(C)C4)c3)cc(Cl)c2O)CC(C)O1	inhibition	H37Rv			resazurin	6.25 µg/mL	-19%
O=C(c1cn(-c2ccccc2)nn1)c1ccc(Br)cc1Br	inhibition	H37Rv				12.5 µg/mL	29%
CO/C(C)=C1/NC(=O)[C@H]([C@@H](C)O)NC(=O)c2csc(n2)-c2cc(O)c(-c3nc(C(=O)NCCc4c[nH]cn4)cs3)nc2-c2csc(n2)[C@@H]2COC(=O)c3c4c5c(cccc5n3O)COC(=O)[C@@H](O[C@H]3C[C@](C)(O)[C@H](N(C)C)[C@H](C)O3)[C@@H](OC4)[C@H](NC(=O)c3csc1n3)c1nc(cs1)C(=O)N2	MIC	H37Rv			broth dilution		10–100 µg/mL
COc1cc(OC)c2cc([N+](=O)[O-])c3ccc(=O)oc3c2c1	MIC	H37RvEr			resazurin		50 µg/mL
COc1c(O)cc2oc3cc(O)c(CCC(C)C)c(O)c3c(=O)c2c1CCC(C)C	MIC	M5	MDR		resazurin		1.56 µg/mL
CC(=O)NC[C@H]1CN(c2ccc(N3CCN(Cc4ccc([N+](=O)[O-])s4)CC3)c(F)c2)C(=O)O1	MIC50	16 isolates (MDR)					0.25 µg/mL
Clc1ccccc1C(c1ccccc1)(c1ccccc1)n1ccnc1	MIC90	ATCC 27294					61.2 µM
NNC(=O)c1ccncc1	MIC	M27	MDR		resazurin		2 µg/mL
O=C(c1ccc(Cl)c(Cl)c1)c1cn(-c2ccccc2)nn1	inhibition	H37Rv				12.5 µg/mL	0%
C=C(NC(=O)c1csc(-c2nc3c(cc2O)-c2nc(cs2)C(=O)N[C@@H]([C@@H](C)O)C(=O)N/C(=C(\C)OC)c2nc(cs2)C(=O)N[C@@H]2c4nc(cs4)C(=O)N[C@@H](COC(=O)c4c5c6c(cccc6n4O)COC(=O)[C@@H](O[C@H]4C[C@](C)(O)[C@H](N(C)C)[C@H](C)O4)[C@H]2OC5)c2nc-3cs2)n1)C(N)=O	MIC	Clinical isolate 16116			broth dilution		≤2.5 µM
CN[C@@H]1[C@H](O[C@H]2[C@H](O[C@H]3[C@H](O)[C@@H](O)[C@H](N=C(N)N)[C@@H](O)[C@@H]3N=C(N)N)O[C@@H](C)[C@]2(O)C=O)O[C@@H](CO)[C@H](O)[C@H]1O	MIC90	ATCC 35820 (streptomycin-resistant)					≥100 µM
Cc1ccc2nc3[nH]c(=O)[nH]c(=O)c3c(C(N)=O)c2c1	MIC bound	H37Rv			BACTEC		>6.25 µg/mL
COc1c(OCc2ccccc2)cc2oc3cc(OCc4ccccc4)c(CCC(C)C)c(O)c3c(=O)c2c1CCC(C)C	MIC	H37Ra			resazurin		12.5 µg/mL
CC1(C)OC2OC(COC(=O)c3ccc([N+](=O)[O-])cc3)C(NC(=O)C(F)(F)F)C2O1	inhibition	H37Rv			BACTEC	12.5 µg/mL	27%
CN[C@@H]1[C@H](O[C@H]2[C@H](O[C@H]3[C@H](O)[C@@H](O)[C@H](N=C(N)N)[C@@H](O)[C@@H]3N=C(N)N)O[C@@H](C)[C@]2(O)C=O)O[C@@H](CO)[C@H](O)[C@H]1O	MIC	M-3	MDR		resazurin		>8 µg/mL
CO[C@H]1/C=C/O[C@@]2(C)Oc3c(C)c(O)c4c(O)c(c(/C=N/N5CCN(C)CC5)c(O)c4c3C2=O)NC(=O)/C(C)=C\C=C\[C@H](C)[C@H](O)[C@@H](C)[C@@H](O)[C@@H](C)[C@H](OC(C)=O)[C@@H]1C	MIC	H37Rv					0.4 µg/mL
Fc1ccc(-c2c(C(c3ccccc3)n3ccnc3)cnn2-c2ccccc2)cc1	MIC90	ATCC 35822 (isoniazid-resistant)					≥100 µM
O=C1OC(=O)C2C1C(c1ccccc1)N1C3C(=O)OC(=O)C3C(c3ccccc3)N21	inhibition	H37Rv			BACTEC	12.5 µg/mL	-3%
CN(C)C/C=C(/c1ccc(Br)cc1)c1ccc(-c2ccc(Br)cc2)cc1	MIC	ALI 3342					8.5 µg/mL
CC(=O)NC1CON(C(C)=O)C1=O	inhibition	H37Rv			BACTEC	12.8 µg/mL	38%
NNC(=O)c1ccncc1	MIC	Clinical isolate 7791	Isoniazid-resistant		broth dilution		≤10 µM
Cc1cc(Br)ccc1NC1=CC(=O)C(=O)c2ccccc21	inhibition	H37Rv			resazurin	6.25 µg/mL	99%
COc1c(OCC(N)=O)cc2oc3cc(OCC(N)=O)c(CCC(C)C)c(O)c3c(=O)c2c1CCC(C)C	MIC	H37Ra			resazurin		>200 µg/mL
CO/C(C)=C1/NC(=O)[C@H]([C@@H](C)O)NC(=O)c2csc(n2)-c2cc(O)c(-c3nc(C(=O)NCCCN4CCOCC4)cs3)nc2-c2csc(n2)[C@@H]2COC(=O)c3c4c5c(cccc5n3O)COC(=O)[C@@H](O[C@H]3C[C@](C)(O)[C@H](N(C)C)[C@H](C)O3)[C@@H](OC4)[C@H](NC(=O)c3csc1n3)c1nc(cs1)C(=O)N2	MIC	Clinical isolate 18460	Rifampicin- and isoniazid-resistant		broth dilution		≤2.5 µM
CC[C@@H](CO)NCCN[C@@H](CC)CO	MIC	H37Rv					1 µg/mL
COc1cc2c3c(c1OC)-c1cc4c(cc1CC3N(C=O)CC2)OCO4	MIC	H37RvRr			resazurin		>50 µg/mL
Fc1ccccc1-c1c(C(c2ccccc2)n2ccnc2)cnn1-c1ccccc1F	MIC90	ATCC 35822 (isoniazid-resistant)					≥100 µM
CCO/N=C(/NC(=O)NC(=O)/C(=N/OCC)c1ccccc1)c1ccccc1	MIC bound	H37Rv			BACTEC		>12.5 µg/mL
COc1ccc2cc1-c1cc(ccc1O)C[C@H]1c3cc4c(cc3CCN1C)Oc1c(OC)cc3c(c1O4)[C@H](C2)N(C)CC3	MIC	H37Rv-ETA-R ATCC 35830			resazurin		3.1 µg/mL
CN(C)C/C=C(/c1ccc(-c2ccc(Br)cc2)cc1)c1ccc([N+](=O)[O-])cc1	MIC	H37Rv					36.5 µg/mL
CC(C)C(=O)c1cn(-c2ccc(Cl)cc2)nn1	inhibition	H37Rv				12.5 µg/mL	0%
CN(C)C/C=C(\c1ccc(N)cc1)c1ccc(-c2ccc(Br)cc2)cc1	MIC	ALI 552					39 µg/mL
COC(=O)C1(C)CCCC2(C)C3CC(CO)C(C(C)C)CC3CCC12	MIC bound	H37Rv			BACTEC		>12.5 µg/mL
CN(C)CC=C(c1ccc(Br)cc1)c1ccc(-c2ccc(Br)cc2)cc1	MIC	ALI 3415					34 µg/mL
NC[C@@H]1O[C@H](O[C@H]2[C@@H](O)[C@H](O[C@@H]3[C@@H](O)[C@H](N)C[C@H](N)[C@H]3O[C@H]3O[C@H](CO)[C@@H](O)[C@H](O)[C@H]3N)O[C@@H]2CO)[C@H](N)[C@@H](O)[C@@H]1O	MIC	MTB17 (INH RIF-R)					<0.19 µg/mL
CN(C)C/C=C(\c1ccc(I)cc1)c1ccc(-c2ccc(Br)cc2)cc1	MIC	ALI 258					≤4 µg/mL
O=c1c(Cl)cc2nc3ccccc3sc-2c1Cl	MIC bound	H37Rv			BACTEC		≤12.5 µg/mL
Cc1coc(C)c1C(=O)c1cn(-c2ccccc2)nn1	MIC	H37Rv					>12.5 µg/mL
CO[C@H]1/C=C/O[C@@]2(C)Oc3c(C)c(O)c4c(O)c(c(/C=N/N5CCN(C)CC5)c(O)c4c3C2=O)NC(=O)/C(C)=C\C=C\[C@H](C)[C@H](O)[C@@H](C)[C@@H](O)[C@@H](C)[C@H](OC(C)=O)[C@@H]1C	MIC	Clinical isolate 1868	Rifampicin- and isoniazid-resistant		broth dilution		≤10 µM
O=C(c1ccc(Br)cc1)c1cn(-c2ccc(Cl)cc2)nn1	MIC	H37Rv					>12.5 µg/mL
CC(C)N=c1cc2n(-c3ccc(Cl)cc3)c3ccccc3nc-2cc1Nc1ccc(Cl)cc1	MIC	90-0233 (isoniazid streptomycin-resistant)					0.4 µg/mL
CC1=C(C(=O)Nc2cccc(C(F)(F)F)c2)C(c2cccc(Oc3ccccc3)c2)C(C(=O)Nc2cccc(C(F)(F)F)c2)=C(C)N1	MIC	H37Rv					>6.25 µg/mL
O=c1cc(O)c1=O	MIC bound	H37Rv			BACTEC		>12.5 µg/mL
NCC[C@H](O)C(=O)N[C@@H]1C[C@H](N)[C@@H](O[C@H]2O[C@H](CN)[C@@H](O)[C@H](O)[C@H]2O)[C@H](O)[C@H]1O[C@H]1O[C@H](CO)[C@@H](O)[C@H](N)[C@H]1O	MIC	MDR4			broth dilution / resazurin		2 µg/mL
Clc1ccccc1-c1c(C(c2ccccc2)n2ccnc2)cnn1-c1ccccc1	MIC50	ATCC 35822 (isoniazid-resistant)					44.1 µM
CCSC(SCC)[C@@H](SCC)[C@@H](O)[C@H](O)[C@H](O)CO	inhibition	H37Rv				6.25 µg/mL	2%
CC1=C(C(=O)Nc2ccc(F)c(Cl)c2)C(c2c3ccccc3cc3ccccc23)C(C(=O)Nc2ccc(F)c(Cl)c2)=C(C)N1	MIC	H37Rv					>6.25 µg/mL
Cc1cc(=O)n(C)c2ccc([N+](=O)[O-])cc12	MIC bound	H37Rv			BACTEC		>12.5 µg/mL
Clc1ccc(-n2ncc(C(c3ccccc3)n3ccnc3)c2-c2ccccc2)cc1	MIC50	ATCC 35837 (ethambutol-resistant)					≥100 µM
Nc1ccc2nc3cc(Nc4ccccc4)c(=Nc4ccccc4)cc-3n(-c3ccccc3)c2c1	MIC	H37Rv			BACTEC		0.4 µg/mL
COc1ccc2cc1-c1cc(ccc1O)C[C@@H]1NCCc3cc4c(cc31)Oc1c(c(OC)cc3c1[C@H](C2)N(C)CC3)O4	MIC	H37Rv-PZA-R ATCC 35828			resazurin		6.2 µg/mL
Cc1ccc(Nc2cc(=O)[nH]c(N)n2)cc1Cl	MIC bound	H37Rv			BACTEC		>12.5 µg/mL
COC(=O)C1=C(C)N(c2ccccc2)C(C)=C(C(=O)OC)C1c1ccc(SC)cc1	MIC	H37Rv					>6.25 µg/mL
COc1ccc2c(n1)Sc1c(Cl)nc(N)nc1N2	MIC bound	H37Rv			BACTEC		>12.5 µg/mL
CO[C@H]1/C=C/O[C@@]2(C)Oc3c(C)c(O)c4c(O)c(c(/C=N/N5CCN(C)CC5)c(O)c4c3C2=O)NC(=O)/C(C)=C\C=C\[C@H](C)[C@H](O)[C@@H](C)[C@@H](O)[C@@H](C)[C@H](OC(C)=O)[C@@H]1C	MIC50	ATCC 35820 (streptomycin-resistant)					0.2 µM
CCOC(=O)C1=C(C(C)=O)C(c2ccc(OC)c(OC)c2)C(C(C)=O)=C(C(=O)OCC)N1	inhibition	H37Rv			BACTEC	12.5 µg/mL	5%
NNC(=O)c1ccncc1	MIC50	ATCC 35837 (ethambutol-resistant)					0.1 µM
O=C1CSC2=NC3=C(COC/C3=C/c3ccc(F)cc3)C(c3ccc(F)cc3)N12	MIC bound	H37Rv			BACTEC		>12.5 µg/mL
O=C(c1cn(-c2ccc(Cl)cc2)nn1)c1ccco1	inhibition	H37Rv				12.5 µg/mL	17%
COc1cc2oc3c(C)c(=O)cc4oc(-c5ccccc5)cc(c2c2c1CC[C@@H](c1ccccc1)O2)c43	MIC	H37Rv		VERO			0.39 µg/mL
COc1ccc(C(=O)c2cn(-c3ccc(Cl)cc3)nn2)cc1	inhibition	H37Rv				12.5 µg/mL	0%

Repeating the first 5 entries:

SMILES | endpoint | strain | changes | cells | read by | dose | result
c1cnn([B-]2(n3cccn3)n3ccc[n+]3[B-](n3cccn3)(n3cccn3)n3ccc[n+]32)c1 | MIC | H37Rv |  |  | BACTEC |  | ≥128 µg/mL
Clc1ccc(-c2c(C(c3ccccc3)n3ccnc3)cnn2-c2ccc(Cl)cc2)cc1 | MIC90 | ATCC 35837 (ethambutol-resistant) |  |  |  |  | ≥100 µM
CC1=C(C(=O)Nc2ccccc2F)C(c2ccccc2)C(C(=O)Nc2ccccc2[N+](=O)[O-])=C(C)N1 | MIC | H37Rv |  |  |  |  | >6.25 µg/mL
CO[C@H]1/C=C/O[C@@]2(C)Oc3c(C)c(O)c4c(=O)c(c5oc6cc(N7CCN(CC(C)C)CC7)cc(=O)c6nc5c4c3=C2O)NC(=O)/C(C)=C\C=C\[C@H](C)[C@H](O)[C@@H](C)[C@@H](O)[C@@H](C)[C@H](OC(C)=O)[C@@H]1C | MIC | 32 (isoniazid-resistant) |  |  |  |  | 0.0039 µg/mL
O=C(c1cn(-c2ccc(Cl)cc2)nn1)c1ccc(Cl)cc1Cl | inhibition | H37Rv |  |  |  | 12.5 µg/mL | 0%